PubChem BioAssay AID624099 – ICCB-Longwood | 2012
In all, the deposit lists about 21,000 reagents; this is a part drawn at random. Of all reagents, 497 (2.4%) are marked active. 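Higher z means weaker E2 silencing; only reporter increases were scored, and knock-downs that hurt cell survival may mask genuine repressor factors.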

Test: 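Host factors E2 relies on to silence an HPV18 LCR reporter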 (primary screen)
Cell system: human C33A cervical carcinoma cells (HPV-negative) stably expressing BPV1 E2 and an HPV18 LCR luciferase reporter
Knock-down reagent: siRNA pool against human genes, 40 nM
Time to read-out: 72 h
Measurement: 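HPV18 LCR reporter light per well, converted to plate-wise z-scores that exclude control wells, and averaged over triplicate plates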
Scale: mean z-score and z-score: higher = stronger reporter signal, weaker E2 silencing
Call rule: 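Hit if mean z-score reaches 2 and two or more of three replicate z-scores also reach 2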

RPL26 (ribosomal protein L26): mean z-score = -1.57; z-score, replicate A = -1.54; z-score, replicate B = -1.6; z-score, replicate C = -1.56; call = inactive
ERRFI1 (ERBB receptor feedback inhibitor 1): mean z-score = -0.39; z-score, replicate A = -0.41; z-score, replicate B = -0.3; z-score, replicate C = -0.46; call = inactive
MRAP (melanocortin 2 receptor accessory protein): mean z-score = 1.49; z-score, replicate A = 1.25; z-score, replicate B = 1.66; z-score, replicate C = 1.57; call = inactive
PPP2R3A (protein phosphatase 2 regulatory subunit B''alpha): mean z-score = 0.43; z-score, replicate A = 0.56; z-score, replicate B = 0.48; z-score, replicate C = 0.25; call = inactive

Taken from above:
Entry of RPL26 (ribosomal protein L26) under “z-score, replicate C”: -1.56
For “z-score, replicate B”, MRAP (melanocortin 2 receptor accessory protein) shows 1.66

More reagents:
OGFOD1: mean z-score = 1.53; z-score, replicate A = 1.18; z-score, replicate B = 1.74; z-score, replicate C = 1.68; call = inactive
PCDHGA9 (protocadherin gamma subfamily A, 9): mean z-score = -1.66; z-score, replicate A = -1.97; z-score, replicate B = -1.47; z-score, replicate C = -1.54; call = inactive
UBXN10 (UBX domain protein 10): mean z-score = 1.75; z-score, replicate A = 2.02; z-score, replicate B = 1.72; z-score, replicate C = 1.51; call = inactive
KRT10 (keratin 10): mean z-score = 0.85; z-score, replicate A = 1.06; z-score, replicate B = 0.72; z-score, replicate C = 0.78; call = inactive
APCDD1 (APC down-regulated 1): mean z-score = -0.71; z-score, replicate A = -1.31; z-score, replicate B = -0.55; z-score, replicate C = -0.26; call = inactive
HENMT1 (HEN methyltransferase 1): mean z-score = 1.09; z-score, replicate A = 1.31; z-score, replicate B = 0.83; z-score, replicate C = 1.14; call = inactive
SMCO1 (single-pass membrane protein with coiled-coil domains 1): mean z-score = -1.58; z-score, replicate A = -1.22; z-score, replicate B = -1.96; z-score, replicate C = -1.55; call = inactive
PXN (paxillin): mean z-score = 0.67; z-score, replicate A = 0.66; z-score, replicate B = 0.34; z-score, replicate C = 1.01; call = inactive
TRAPPC3 (trafficking protein particle complex subunit 3): mean z-score = -0.49; z-score, replicate A = -0.28; z-score, replicate B = -0.64; z-score, replicate C = -0.55; call = inactive
TLCD1 (TLC domain containing 1): mean z-score = 0.05; z-score, replicate A = 0.23; z-score, replicate B = -0.23; z-score, replicate C = 0.15; call = inactive
